SMILES strings stand for the structures.

As usually defined, the Ki is the dissociation constant of the complex between target and ligand, obtained from inhibition or displacement. A higher Ki goes with lower affinity.

The assay deals with T1, Dimer of Gag-Pol polyprotein [489-587] (Human immunodeficiency virus 1, UniProt P12497).
T1 construct: 489-587
Description: Protease Inhibition Assay. Particulars: pH 5; 30 °C.

`CNC(=O)c1cccc(CN2[C@H](COc3ccccc3)[C@H](O)[C@@H](O)[C@@H](COc3ccccc3)N(Cc3ccccc3)S2(=O)=O)c1` [3-{[(3R,4S,5S,6R)-7-benzyl-4,5-dihydroxy-1,1-dioxo-3,6-bis(phenoxymethyl)-1,2,7-thiadiazepan-2-yl]methyl}-N-methylbenzamide] showed a Ki of 11 nM.

Values taken from BindingDB's records for doi:10.1021/jm001024j (Uppsala University, 2001).
